Patent publication US6706704B2 (priority 2001, dated 2004)

How the values were obtained:
Aug-E neurons = assay: Voltage clamp measurement of membrane currents in Aug-E neurons after fentanyl; conditions: doxapram i.v. (1 mg/kg) after fentanyl 20 μg/kg, chloralose-anesthetized cat
[1] = system: D1-dopamine receptors (phrenic nerve activity)
[2] = system: phrenic nerve activity (D1-dopamine receptor agonism); assay: Reversal of fentanyl-induced respiratory depression/apnea by D1-dopamine receptor agonists (PN activity); conditions: for restoration of three-phase PN respiratory rhythm after fentanyl: doses of 1.5-3.0 mg/kg i.v., pentobarbital, chloralose and decerebrate cats
[3] = system: postinspiratory (PI) neurons; assay: Extracellular recording of non-bulbospinal postinspiratory (PI) neuron discharges; conditions: FIG. 8D, chloralose-anesthetized cat; reversal not complete

Compound | effect on PN activity, synaptic drive potentials and currents during fentanyl apnea (Aug-E neurons) | PN discharges after doxapram ([1]; i.v. 0.5-1.0 mg/kg after fentanyl, R(+)-SCH-23390 and D1 agonist) | restoration of three-phase PN respiratory rhythm after fentanyl [2] | PI neuron and PNA discharges after fentanyl [3] | restoration of PN discharges during fentanyl apnea ([2]; 1 mg/kg, pentobarbital-anesthetized cat) | further effect of increased dose ([2]; 4.5 mg/kg, chloralose-anesthetized cat) | restoration of PN discharges after fentanyl apnea ([2]; cumulative dose 3 mg/kg after fentanyl 30 μg/kg, chloralose-anesthetized cat) | restoration of PN discharges after pretreatment with R(+)-SCH-23390 ([1]; fentanyl apnea, (±)-chloro-APB 1-3 mg/kg)
CCN1CC(CCN2CCOCC2)C(c2ccccc2)(c2ccccc2)C1=O (stereo not drawn) | reinstated PN activity as well as synaptic drive potentials and currents | evoked strong PN discharges at the same frequency as control |  |  |  |  |  | 
Oc1cc2c(cc1O)C(c1ccccc1)CNCC2 (racemic) |  |  | consistently restored the three-phase PN respiratory rhythm |  |  |  |  | 
Br.C=CCN1CCc2c(cc(O)c(O)c2Cl)C(c2ccccc2)C1 (racemic) [(±)-chloro-APB, (+/−)6-chloro-7,8-dihydroxy-3-allyl-1-phenyl-2,3,4,5-tetrahydro-1H-3-benzazepine hydrobromide] |  |  | consistently restored the three-phase PN respiratory rhythm | restored rhythmic discharges | restored PN discharges | produced no further change | restored inspiratory and postinspiratory PN discharges | failed to restore PN discharges
